Results of unrelated studies side by side (data: NIAID ChemDB).

Common to all: growth or infection tests; organism: Mycobacterium kansasii; measure: MIC

An empty or dashed field is not shown. Rows are shuffled and stem from different studies.

structure | strain | read by | setting | value
COc1cc(O)cc(/C=C/c2cc3ccccc3s2)c1 |  | broth dilution |  | 16 µg/mL
O=C(N[C@@H]([C@H](O)CNCc1cccc(I)c1)C(F)(F)c1ccccc1)OCc1ccccc1 | T | broth dilution |  | >256 µg/mL
O=C(Nc1ccc(C(F)(F)F)cc1)c1cc(Cl)ccc1OP(=O)(c1ccccc1)c1ccccc1 | My 6509/96 |  | 14 d | 4 µM
C[C@H]1COC2(CCN(c3nc(=O)c4cc(C(F)(F)F)cc([N+](=O)[O-])c4s3)CC2)O1 | ATCC 12478 | resazurin / fluorescence |  | <0.02 µg/mL
CCCCc1cnc(C(=O)/C=C/c2ccc(Br)cc2)cn1 | Hauduroy | absorbance |  | >50 µg/mL
O=C(N[C@@H]([C@@H](O)CNCc1cccc(I)c1)C(F)(F)c1ccccc1)OCc1ccccc1 | P | broth dilution |  | 32 µg/mL
C=C1C(=O)N[C@@H](C)C(=O)N[C@H](CC(C)C)C(=O)N[C@H](C(=O)O)[C@H](C)C(=O)N[C@H](CCCN=C(N)N)C(=O)N[C@@H](/C=C/C(C)=C/[C@H](C)[C@H](Cc2ccccc2)OC)[C@@H](C)C(=O)N[C@@H](C(=O)O)CCC(=O)N1C |  | resazurin |  | 2.15 µM
CC(C)c1cnc(C(=O)/C=C/c2ccc(Br)cc2)cn1 | Hauduroy | absorbance |  | 6.25 µg/mL
O=C1c2cc(Br)ccc2OP(=O)(c2ccccc2)N1c1ccc(C(F)(F)F)cc1 | My 6509/96 |  | 14 d | 8 µM
COc1cc(=O)n(C)c2ccccc12 | ATCC 12478 | broth dilution / resazurin |  | 10600 µM
O=C(Nc1ccc(C(F)(F)F)cc1)c1cc(Br)ccc1OP(=O)(Oc1ccccc1)Oc1ccccc1 | My 235/80 |  | 7 d | 2 µM
O=C(N/N=C/N1CCN(c2cc3c(cc2F)c(=O)c(C(=O)O)cn3C2CC2)CC1)c1ccc(C(F)(F)F)cc1 | 6509/96 |  | 7 d | 1 µM
O=C(Nc1ccccc1)c1ccccc1OP(=O)(c1ccccc1)c1ccccc1 | My 235/80 |  | 21 d | 250 µM
O=C(N[C@H]([C@H](O)CNCc1cccc(I)c1)C(F)(F)c1ccccc1)OCc1ccccc1 | ATCC 35775 | broth dilution |  | 32 µg/mL
O=C(Nc1ccc(Cl)cc1)c1cc(Cl)ccc1OP(=O)(Oc1ccccc1)c1ccccc1 | My 235/80 |  | 21 d | 8 µM
CC(C)=CCC/C(C)=C/CNCCNC1C2CC3CC(C2)CC1C3 | ATCC 35775 | broth dilution |  | 2 µg/mL
O=C(Nc1ccc(C(F)(F)F)cc1)c1cc(Br)ccc1OP(=O)(c1ccccc1)c1ccccc1 | My 6509/96 |  | 7 d | 4 µM
CCCc1cnc(C(=O)/C=C/c2ccccc2F)cn1 | Hauduroy | absorbance |  | 12.5 µg/mL